For the data set, the target named is UL9 full length (Herpes simplex virus 1) (UniProt P10193). The data set can be described thus: competition with a labelled probe. Particulars: unlabelled competitor used to measure dissociation; protein in an extract.

Sequences of proteins named here, by UniProt entry; tags and fusion partners are left off. A change or cut given only in a name is not applied to a line headed by its entry.
UniProt P10193: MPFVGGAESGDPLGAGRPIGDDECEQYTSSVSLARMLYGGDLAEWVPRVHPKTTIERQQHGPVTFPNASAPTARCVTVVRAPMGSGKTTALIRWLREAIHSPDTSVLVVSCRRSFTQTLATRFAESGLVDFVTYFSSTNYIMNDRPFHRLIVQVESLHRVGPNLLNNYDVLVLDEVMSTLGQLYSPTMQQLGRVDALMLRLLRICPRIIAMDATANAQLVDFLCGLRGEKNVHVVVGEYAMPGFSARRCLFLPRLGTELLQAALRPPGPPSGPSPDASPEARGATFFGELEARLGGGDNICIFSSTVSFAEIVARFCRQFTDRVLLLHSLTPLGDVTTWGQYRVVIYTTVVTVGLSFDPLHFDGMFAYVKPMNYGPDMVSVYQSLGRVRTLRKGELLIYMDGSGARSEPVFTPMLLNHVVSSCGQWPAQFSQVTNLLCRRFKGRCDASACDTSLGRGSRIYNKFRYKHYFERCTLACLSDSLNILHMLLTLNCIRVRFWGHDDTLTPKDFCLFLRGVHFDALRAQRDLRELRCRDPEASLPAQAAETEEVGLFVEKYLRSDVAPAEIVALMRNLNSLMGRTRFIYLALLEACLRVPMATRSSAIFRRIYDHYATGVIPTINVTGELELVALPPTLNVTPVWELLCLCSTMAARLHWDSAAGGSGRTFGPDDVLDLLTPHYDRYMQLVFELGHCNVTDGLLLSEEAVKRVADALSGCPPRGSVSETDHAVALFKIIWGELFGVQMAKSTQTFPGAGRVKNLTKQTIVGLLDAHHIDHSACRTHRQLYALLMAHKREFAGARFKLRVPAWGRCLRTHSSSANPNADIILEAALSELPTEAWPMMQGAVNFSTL

Results from cells or extracts need not show a direct contact.

As to “GGTCGTTCGCACTTCGC (double strand) [17 bp competitor]”, the binding result is given as “binds”.

The values are drawn from US5306619, “Screening assay for the detection of DNA-binding molecules” (Genelabs Technologies, Inc.).
